Results: PMC9692485
pEC50: −log10 of the molar value.

Biological target: human angiotensin-converting enzyme 2 (hACE2) (human) (UniProt Q9BYF1)
Assay: ELISA; 200 ng recombinant hACE2 coated in a 96-well plate overnight at 4 °C; serially diluted RBD proteins (80, 20, 5, 1.25, 0.31, 0.078 and 0.02 μM) added for 2 h at room temperature; detected with anti-RBD mouse serum and anti-mouse IgG HRP, OD at 450 nm

Substance | pEC50 | OD450 at 20 μM RBD [OD450]
tag-free SARS-CoV-2 RBD (from UniProt P0DTC2 333-516) (domain or fragment; other documents disagree on this pair) | 5.75 | 1.9
His-tag SARS-CoV-2 RBD (from UniProt P0DTC2 333-516) (domain or fragment; other documents disagree on this pair) | 5.12 | 1.4
